Test results published in article PMC4256157.
The exact form of at least one protein or probe is not confirmed. Protein sequences can lack the tags named with them.

Target: T1, LiMRE11WT (Leishmania infantum) (UniProt A4I2Z5)
T1 sequence (looked up, limits assumed): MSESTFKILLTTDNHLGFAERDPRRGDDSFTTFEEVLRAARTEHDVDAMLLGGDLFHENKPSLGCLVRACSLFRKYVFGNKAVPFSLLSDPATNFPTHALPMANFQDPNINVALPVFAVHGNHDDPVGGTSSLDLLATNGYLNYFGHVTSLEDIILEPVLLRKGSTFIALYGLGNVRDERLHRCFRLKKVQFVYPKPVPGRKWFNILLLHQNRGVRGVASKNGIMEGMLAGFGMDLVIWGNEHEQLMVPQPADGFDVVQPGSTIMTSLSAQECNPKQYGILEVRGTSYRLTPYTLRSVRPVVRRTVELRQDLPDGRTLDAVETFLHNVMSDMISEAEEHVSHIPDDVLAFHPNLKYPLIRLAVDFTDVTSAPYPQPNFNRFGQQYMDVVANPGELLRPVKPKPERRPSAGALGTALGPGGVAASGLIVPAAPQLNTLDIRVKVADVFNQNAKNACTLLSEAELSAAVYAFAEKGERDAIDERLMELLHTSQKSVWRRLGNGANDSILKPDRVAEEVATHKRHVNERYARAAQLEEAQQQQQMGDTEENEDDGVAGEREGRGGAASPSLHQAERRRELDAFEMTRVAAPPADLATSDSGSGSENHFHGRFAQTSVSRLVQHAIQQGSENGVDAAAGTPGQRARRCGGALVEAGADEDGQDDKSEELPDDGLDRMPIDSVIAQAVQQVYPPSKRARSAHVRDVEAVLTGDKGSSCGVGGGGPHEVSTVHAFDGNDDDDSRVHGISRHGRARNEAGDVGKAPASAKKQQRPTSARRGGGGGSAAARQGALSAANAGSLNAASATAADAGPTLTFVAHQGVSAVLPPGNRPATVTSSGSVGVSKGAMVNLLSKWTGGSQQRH
Test: EMSA
Details: 2 mM Ca2+, competitive assay, 25 mM MOPS pH 7.0, 0.2% Tween-20, 2 mM CaCl2, 2 mM DTT, 25 nM 32P-DNA, 0-15 nM protein, 15 min 37 C, then 0.2% glutaraldehyde 15 min 37 C, 8% TBE gel, recombinant protein

Sequence | binding signal (% bound at 15 nM protein) (text also says not shifted, label: 32P on strand 1) | binding signal (% bound at 15 nM protein) (glutaraldehyde fixed, label: 32P, single-stranded DNA)
GGGTGAACCTGCAGGTGGGCAAAGATGTCCTAGCAATGTAATCGTCAAGCTTTATGCCGT (double strand) [DS (double-strand)] | 10 | 
GGGTGAACCTGCAGGTGGGCAAAGATGTCCTAGCAATGTAATCGTCAAGCTTTATGCCGT [SS (single-strand)] |  | 65
